{"source": "PubChem BioAssay AID1259414 (Drosophila RNAi Screening Center, 2018)", "screen": "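Genome-wide screen for host control of endosymbiont load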 (primary screen)", "cell system": "Drosophila JW18 cells infected with Wolbachia", "knock-down reagent": "long dsRNA against Drosophila genes, 0.25 µg dsRNA per well of a 384-well plate", "timing": "5 days", "treatment": "cells persistently infected with Wolbachia before knock-down; no added drug", "read-out": "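Imaged fluorescence in situ signal for Wolbachia 23S rRNA per DAPI-counted host cell, given as a robust z-score within each plate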", "reading the numbers": "Wolbachia per cell robust z: higher = more Wolbachia per host cell than the plate typical", "rule for the call": "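Active if absolute robust z reaches 1.5 in two or more of three replicates, leaving out multi- or no-target dsRNAs, genes unexpressed in JW18 and A1 wells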", "note": "The deposit covers about 24,000 reagents; shown is a random part of those that have a named target and a result. Of all reagents, about 1,210 (5%) got an active call. 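Inactive calls also include excluded dsRNAs with several or no targets, genes unexpressed in JW18, and well A1, regardless of score.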 A number with no mark means an inactive call."}
The first 2 entries, ahead of the listing:
{"target": "Sec10 (Secretory 10)", "dsRNA": "DRSC17053", "Wolbachia per cell robust z, rep 1": 0.965, "Wolbachia per cell robust z, rep 2": 0.227, "Wolbachia per cell robust z, rep 3": 7.18}
{"target": "Sec10 (Secretory 10)", "dsRNA": "DRSC29106", "Wolbachia per cell robust z, rep 1": 0.591, "Wolbachia per cell robust z, rep 2": 1.55, "Wolbachia per cell robust z, rep 3": 0.916}

Results, from the first entry:
{"target": "Sec10 (Secretory 10)", "dsRNA": "DRSC17053", "Wolbachia per cell robust z, rep 1": 0.965, "Wolbachia per cell robust z, rep 2": 0.227, "Wolbachia per cell robust z, rep 3": 7.18}
{"target": "Sec10 (Secretory 10)", "dsRNA": "DRSC29106", "Wolbachia per cell robust z, rep 1": 0.591, "Wolbachia per cell robust z, rep 2": 1.55, "Wolbachia per cell robust z, rep 3": 0.916}
{"target": "PKD (Protein Kinase D)", "dsRNA": "DRSC16200", "Wolbachia per cell robust z, rep 1": -3.76, "Wolbachia per cell robust z, rep 2": -5.09, "Wolbachia per cell robust z, rep 3": -0.826}
{"target": "CG31516", "dsRNA": "DRSC11994", "Wolbachia per cell robust z, rep 1": 0.402, "Wolbachia per cell robust z, rep 2": 0.137, "Wolbachia per cell robust z, rep 3": -0.878}
{"target": "CG15107", "dsRNA": "DRSC23406", "Wolbachia per cell robust z, rep 1": 1.72, "Wolbachia per cell robust z, rep 2": 0.681, "Wolbachia per cell robust z, rep 3": 1.4}
{"target": "CG6415", "dsRNA": "DRSC02954", "Wolbachia per cell robust z, rep 1": 1.07, "Wolbachia per cell robust z, rep 2": 0.775, "Wolbachia per cell robust z, rep 3": -1.66}
{"target": "CG6415", "dsRNA": "DRSC29833", "Wolbachia per cell robust z, rep 1": -0.265, "Wolbachia per cell robust z, rep 2": 0.58, "Wolbachia per cell robust z, rep 3": 0.324}
{"target": "Ir76a (Ionotropic receptor 76a)", "dsRNA": "DRSC10987", "Wolbachia per cell robust z, rep 1": -2.11, "Wolbachia per cell robust z, rep 2": 1.04, "Wolbachia per cell robust z, rep 3": -0.0491}
{"target": "Osi11 (Osiris 11)", "dsRNA": "DRSC12282", "Wolbachia per cell robust z, rep 1": -0.533, "Wolbachia per cell robust z, rep 2": 0.926, "Wolbachia per cell robust z, rep 3": -0.343}
{"target": "Adk1 (Adenosine kinase 1)", "dsRNA": "DRSC15514", "Wolbachia per cell robust z, rep 1": 0.161, "Wolbachia per cell robust z, rep 2": 1.83, "Wolbachia per cell robust z, rep 3": 0.957}
{"target": "CG13325", "dsRNA": "DRSC06362", "Wolbachia per cell robust z, rep 1": -0.801, "Wolbachia per cell robust z, rep 2": -0.859, "Wolbachia per cell robust z, rep 3": 0.836}
{"target": "CG13325", "dsRNA": "DRSC24773", "Wolbachia per cell robust z, rep 1": 0.0677, "Wolbachia per cell robust z, rep 2": -0.00889, "Wolbachia per cell robust z, rep 3": -1.01}
{"target": "CG3281", "dsRNA": "DRSC15470", "Wolbachia per cell robust z, rep 1": 0.621, "Wolbachia per cell robust z, rep 2": -0.577, "Wolbachia per cell robust z, rep 3": 1.03}
{"target": "CG3281", "dsRNA": "DRSC28414", "Wolbachia per cell robust z, rep 1": 0.81, "Wolbachia per cell robust z, rep 2": 1.23, "Wolbachia per cell robust z, rep 3": 0.923}
{"target": "Dh44-R2 (Diuretic hormone 44 receptor 2)", "dsRNA": "DRSC06141", "Wolbachia per cell robust z, rep 1": -0.552, "Wolbachia per cell robust z, rep 2": -1.06, "Wolbachia per cell robust z, rep 3": -3.38}
{"target": "Dh44-R2 (Diuretic hormone 44 receptor 2)", "dsRNA": "DRSC06281", "Wolbachia per cell robust z, rep 1": -1.41, "Wolbachia per cell robust z, rep 2": -2.7, "Wolbachia per cell robust z, rep 3": -0.67}
